From ChEMBL document CHEMBL4422700, “Trichothecenes from a Soil-Derived Trichoderma brevicompactum” (J Nat Prod, 2019)

Tests used:
Cryptococcus neoformans = experiment: Antifungal activity against flucytosine-resistant, Cryptococcus neoformans ATCC 90113 by colorimetric broth microdilution method; assay type: functional
Candida albicans = experiment: Antifungal activity against Candida albicans NCPF3153 by colorimetric broth microdilution method; assay type: functional

## CC(=O)O[C@@H]1C[C@H]2O[C@@H]3C=C(C=O)CC[C@]3(C)[C@]1(C)[C@]21CO1
Cryptococcus neoformans
  MIC: 4 µg/mL (≈ 13.1 µM)
Candida albicans
  MIC: 2 µg/mL (≈ 6.53 µM)

Converted amounts (≈) assume the structure as drawn.
